A mixed list of measured activities; the numbers were collected in NIAID ChemDB.

Shared fields: tests in culture; agent: HIV-1; cell line: MT-4; endpoint: EC50

ECn: concentration that inhibits the pathogen or its effect by n%. An empty or dashed field is not shown. Conditions beyond the fields shown may differ between rows.

structure | strain | mutations | method | result
CC(C)CN(C[C@@H](O)[C@H](Cc1ccccc1)NC(=O)O[C@H]1CO[C@H]2OCC[C@H]21)S(=O)(=O)c1ccc(N)c(N(C)C)c1 | IIIB WT |  | GFP | 0.0182 µM
C=CCOCn1c(Cc2ccccc2)c(CO)c(=O)[nH]c1=O | IIIB | K103N + Y181C | MTT | >100 µM
CNc1cc(S(=O)(=O)N(CC(C)C)C[C@@H](O)[C@H](Cc2ccccc2)NC(=O)O[C@H]2CO[C@H]3OCC[C@H]32)ccc1N | IIIB WT |  | GFP | 0.0229 µM
COc1ccccc1NC(=O)C1=C(C)NC(=O)C2C(N)=NN=C12 | IIIB |  | MTT | 100 µg/mL
N#Cc1ccccc1C#CC1(C(F)(F)F)OC(=O)Nc2ccc(Cl)cc21 | IIIB |  | p24 | <0.006 µM
Cc1cc(C)cc(N2C(=O)CSC2c2c(Cl)cccc2Cl)c1 | IIIB |  | cytopathic effect | 0.19 µM
Cc1nc2c(c(C)c(C)n2Cc2ccco2)c(-c2ccc(Cl)cc2)c1[C@H](OC(C)(C)C)C(=O)O | IIIB |  | MTT | 0.0291 µM
Cc1cc2oc(=O)c(C(=O)/C=C/c3cccc([N+](=O)[O-])c3)c(O)c2cc1Cl | IIIB |  | virus yield | >56 µg/mL
Cc1nc2c(c(C)c(C)n2C)c(-c2ccc(Cl)cc2)c1[C@H](OC(C)(C)C)C(=O)O | IIIB |  | MTT | 0.00627 µM
Cc1cn([C@@H]2O[C@H](COCC(C)C)C3(OS(=O)(=O)C=C3N)[C@H]2O[Si](C)(C)C(C)(C)C)c(=O)n(C)c1=O |  |  |  | 4.5 µM
O=S(=O)(c1cccc2cnccc12)N1CCNCC1 | IIIB |  | cytopathic effect / MTT | >14.8 µg/mL
CC1(C)CC=C(c2cn(-c3nccc(C(=O)NC4CCC(N5CC6CCC(C5)O6)CC4)n3)c3ccc(F)c([C@H](OC(C)(C)C)C(=O)O)c23)CC1 | NL4-3 | T124A | luminescence | 0.0058 µM
CC1=C(C(=O)Nc2ccc(C)cc2)C2=NN=C(N)C2C(=O)N1 | IIIB |  | MTT | 100 µg/mL
CCn1c(C)c(C)c2c(-c3ccc(F)cc3)c(C(OC(C)(C)C)C(=O)O)c(C)nc21 | IIIB |  | MTT | 0.1164 µM
C=C(C)[C@@H]1CC[C@]2(C(=O)NCCCCCCCC(=O)N[C@@H](CC(C)C)[C@@H](O)CC(=O)O)CC[C@]3(C)[C@H](CC[C@@H]4[C@@]5(C)CC[C@H](O)C(C)(C)[C@@H]5CC[C@]43C)[C@@H]12 | NL4-3 |  | luciferase / cell fusion | 0.053 µM
O=C1NCC(CCC2(C(F)(F)F)OC(=O)Nc3ccc(Cl)cc32)O1 | IIIB |  | p24 | <78 µM
N#Cc1ccc(Nc2ccnc(C(=O)c3ccc(C#N)cc3)n2)cc1 | IIIB |  | luciferase | 43 µM
COC(=O)CCNP(=O)(OC[C@@H]1C=C[C@H](n2cc(C)c(=O)[nH]c2=O)O1)Oc1ccccc1 | IIIB |  | cytopathic effect / trypan blue | 1.34 µM
CC(C)CN(C[C@@H](O)[C@H](Cc1ccccc1)NC(=O)O[C@H]1CO[C@H]2OCC[C@H]21)S(=O)(=O)c1ccc(N)c(NCCN2CCOCC2)c1 | IIIB WT |  | GFP | 0.0741 µM
CC(C)[C@H](C)CC[C@](C)(O)[C@H]1C(=O)C[C@H]2[C@@H]3C(=O)C=C4C[C@@H](O)CC[C@]4(C)[C@H]3CC[C@@]21C | NL4-3 | K103N RI-resistant | MTT | 0.08663 µM
O=C(NC1CC1)c1cn2c(c1O)C(=O)N(Cc1ccc(F)cc1)CC2 |  |  | p24 | <20 µM
COc1cc(/C=C/C(=O)c2c(O)c3c(C)ccc(C(C)C)c3oc2=O)ccc1O | IIIB |  | virus yield | >15.11 µg/mL
O=C1CSC(c2c(F)cccc2Cl)N1c1cc(Cl)cc(Cl)c1 | IIIB |  | cytopathic effect | 0.32 µM
CC(C)CN(C[C@@H](O)[C@H](Cc1ccccc1)NC(=O)O[C@H]1CO[C@H]2OCC[C@H]21)S(=O)(=O)c1ccc(N)c(NCCCN2CCCC2=O)c1 | IIIB WT |  | GFP | 0.135 µM
COCC#CC1(C(F)(F)F)OC(=O)Nc2ccc(Cl)cc21 | IIIB |  | p24 | <0.05 µM
CNC(=O)c1cn2c(c1O)C(=O)N(Cc1ccc(F)c(F)c1)CC2 |  |  | p24 | <20 µM
Cc1cccc(N2C(=O)CSC2c2c(F)cccc2Cl)c1 | IIIB |  | cytopathic effect | 0.21 µM
CNC(=O)c1cn2c(c1O)C(=O)N(Cc1ccc(Cl)cc1)CC2 |  |  | p24 | <20 µM
COc1cc(/C=C/C(=O)c2c(O)c3cc(Cl)c(C)cc3oc2=O)ccc1O | IIIB |  | virus yield | >9.87 µg/mL
Cc1nc2ccccc2c(-c2cc(F)c3c(c2C)CCCO3)c1[C@H](OC(C)(C)C)C(=O)O | NL4-3 | T125V | luminescence | 0.011 µM
O=C1CSC(c2c(Cl)cccc2Cl)N1c1cccc(Br)c1 | IIIB |  | cytopathic effect | 0.62 µM
CNC(=O)c1cn2c(c1O)C(=O)N(Cc1ccc(F)cc1)CC2 |  |  | p24 | <20 µM
CCCC1(C2CC2)OC(=O)Nc2ccc(Cl)cc21 | IIIB |  | p24 | <1.5 µM
Cc1cc2oc(=O)c(C(=O)/C=C/c3ccccc3[N+](=O)[O-])c(O)c2cc1Cl | IIIB |  | virus yield | >6.94 µg/mL
Cc1cc(C)cc(N2C(=O)CSC2c2c(F)cccc2Cl)c1 | IIIB |  | cytopathic effect | 0.09 µM
CCc1c(Cc2cc(C)cc(C)c2)n(Cc2ccc(C#CCO)cc2)c(=O)[nH]c1=O |  |  | MTT | 0.004 µM
O=S(=O)(O)O.OCC(O)C(O)C(OC1OC(CO)C(O)C(OC2OC(CO)C(O)C(OC3OC(CO)C(O)C(OC4OC(CO)C(O)C(OC5OC(CO)C(O)C(O)C5O)C4O)C3O)C2O)C1O)C(O)CO | IIIB |  | cytopathic effect / MTT | >300 µg/mL
Cc1ccc(C(C)C)c2oc(=O)c(C(=O)/C=C/c3cccc([N+](=O)[O-])c3)c(O)c12 | IIIB |  | virus yield | >10.9 µg/mL
CCOC(=O)c1c(C(C)C)c(C#N)c(=N)n2ccccc12 | IIIB |  | syncytia | <42.5 µM
CCOCn1c(Cc2ccccc2)c(C(C)C)c(=O)[nH]c1=O | RF |  | cytopathic effect / MTT | 0.018 µM
CCc1cccc(N2C(=O)CSC2c2c(F)cccc2F)c1 | IIIB |  | cytopathic effect | 0.78 µM
Cc1cc2oc(=O)c(C(=O)/C=C/c3ccccc3)c(O)c2cc1Cl | IIIB |  | virus yield | >3.64 µg/mL
COc1ccccc1C#CC1(C(F)(F)F)OC(=O)Nc2ccc(Cl)cc21 | IIIB |  | p24 | <0.006 µM
Cc1ccc(C(C)C)c2oc(=O)c(C(=O)/C=C/c3cccc(Oc4ccccc4)c3)c(O)c12 | IIIB |  | virus yield | >3.49 µg/mL
C=C(C)COCn1c(Cc2ccccc2)c(CF)c(=O)[nH]c1=O | IIIB | K103N + Y181C | MTT | >20 µM
Cc1cc2oc(=O)c(C(=O)/C=C/c3ccc(O)cc3)c(O)c2cc1Cl | IIIB |  | virus yield | >2 µg/mL
Nc1ccn([C@H]2CC[C@@H](CO)O2)c(=O)n1 |  | G190A | MTT | 0.014 µM
O=C1CSC(c2c(Cl)cccc2Cl)N1c1cc(F)cc(F)c1 | IIIB |  | cytopathic effect | 0.13 µM
Cc1ccc(C(C)C)c2oc(=O)c(C(=O)/C=C/c3ccc(O)cc3)c(O)c12 | IIIB |  | virus yield | >3.73 µg/mL
CC(C)CN(C[C@@H](O)[C@H](Cc1ccccc1)NC(=O)O[C@H]1CO[C@H]2OCC[C@H]21)S(=O)(=O)c1ccc(N)c(NCCc2cncn2CC(C)C)c1 | IIIB WT |  | GFP | 0.288 µM
CCc1c(Cc2cc(C)cc(C)c2)n(Cc2ccc(I)cc2)c(=O)[nH]c1=O | IIIB | EFV:K103R+V179D+P225H | MTT | >43 µM
CC(C)CN(C[C@@H](O)[C@H](Cc1ccccc1)NC(=O)O[C@H]1CO[C@H]2OCC[C@H]21)S(=O)(=O)c1ccc(N)c(NCc2cccc(F)c2)c1 | IIIB WT |  | GFP | 0.00129 µM
Cc1cc(C)cc(S(=O)(=O)c2c(C(=O)NCC(=O)NC(C)C(=O)NN)[nH]c3ccc(Cl)cc23)c1 | Nevirapine-resistant (RT Y181C) |  | cytopathic effect / MTT | 0.16 µM

For reference, 4 entries again:

structure,strain,mutations,method,result
N#Cc1ccccc1C#CC1(C(F)(F)F)OC(=O)Nc2ccc(Cl)cc21,IIIB,,p24,<0.006 µM
Cc1ccc(C(C)C)c2oc(=O)c(C(=O)/C=C/c3cccc(Oc4ccccc4)c3)c(O)c12,IIIB,,virus yield,>3.49 µg/mL
C=C(C)COCn1c(Cc2ccccc2)c(CF)c(=O)[nH]c1=O,IIIB,K103N + Y181C,MTT,>20 µM
Cc1cc2oc(=O)c(C(=O)/C=C/c3ccc(O)cc3)c(O)c2cc1Cl,IIIB,,virus yield,>2 µg/mL